Measured values from several laboratories, pooled; numbers as filed in NIAID ChemDB.

Common to all: tests in culture; agent: Candida albicans; endpoint: MIC50

Blank or dashed fields: not listed here.

structure | strain or isolate | setting | result
CC(C)=CCc1c(O)ccc(C(=O)/C=C/c2ccc(O)cc2)c1O |  |  | 3 µg/mL
CCC(C)n1ncn(-c2ccc(N3CCN(c4ccc(OC[C@H]5CO[C@](Cn6cncn6)(c6ccc(Cl)cc6Cl)O5)cc4)CC3)cc2)c1=O | 23 strains |  | 0.06 µg/mL
Fc1ccc(C(c2ccc3ccccc3c2)n2ccnc2)cc1 | 23 strains |  | 8 µg/mL
COC(=O)c1ccc2[nH]c3ccccc3c2c1 |  |  | 9.5 µg/mL
CCCCCCCCCCCCCCCCOP(=O)([O-])OCC[N+](C)(C)C |  |  | 2 µg/mL
C[C@H]1[C@H](O)[C@@H](C)/C=C/C=C/C=C/C=C/C=C/C=C/C=C/[C@H](O[C@@H]2O[C@H](C)[C@@H](O)[C@H](N)[C@@H]2O)C[C@@H]2O[C@](O)(C[C@@H](O)C[C@@H](O)CC[C@H](O)[C@@H](O)C[C@@H](O)CC(=O)O[C@H]1C)C[C@H](O)[C@H]2C(=O)O | 40 strains |  | 0.25 µg/mL
O=[N+]([O-])c1ccc(C(c2c[nH]cc2-c2ccc(Cl)c(Cl)c2)n2ccnc2)cc1 | 40 strains |  | 156 µg/mL
O=C(OC[C@H]1CO[C@](Cn2ccnc2)(c2ccc(-c3ccccc3)cc2)O1)c1ccccc1 | 44 strains |  | 16 µg/mL
CCC(C)CC(C)CCCCCCCCC(=O)N[C@H]1C[C@@H](O)[C@H](NCCN)NC(=O)[C@@H]2[C@@H](O)CCN2C(=O)[C@H]([C@H](O)CCN)NC(=O)[C@H]([C@H](O)[C@@H](O)c2ccc(O)cc2)NC(=O)[C@@H]2C[C@@H](O)CN2C(=O)[C@H]([C@@H](C)O)NC1=O | 40 isolates |  | 0.5 µg/mL
Fc1ccc(C(c2c[nH]cc2-c2ccc(Cl)cc2)n2ccnc2)cc1 | 40 strains |  | 8 µg/mL
OC(Cn1cncn1)(Cn1cncn1)c1ccc(F)cc1F | 63 isolates | 48 h | 1.6 µg/mL
C[C@H]1[C@H](O)[C@@H](C)/C=C/C=C/C=C/C=C/C=C/C=C/C=C/[C@H](O[C@@H]2O[C@H](C)[C@@H](O)[C@H](N)[C@@H]2O)C[C@@H]2O[C@](O)(C[C@@H](O)C[C@@H](O)CC[C@H](O)[C@@H](O)C[C@@H](O)CC(=O)O[C@H]1C)C[C@H](O)[C@H]2C(=O)O | 19 strains |  | 0.5 µg/mL
COc1ccc2c(c1)[nH]c1cc(OC)c(C(=O)O)cc12 |  |  | >50 µg/mL
CCCCCCCCCCCCCCCC(=O)NC1CC(O)C(O)NC(=O)C2C(O)C(C)CN2C(=O)C(C(O)CC(N)=O)NC(=O)C(C(O)Cc2ccc(O)c(OS(=O)(=O)O)c2)NC(=O)C2CC(O)CN2C(=O)C(C(C)O)NC1=O | FP582 |  | 0.015 µg/mL
FC(F)(F)c1ccc(OC(CCn2ccnc2)c2ccccc2)cc1 | 20 strains |  | 64 µg/mL
OC(Cn1cncn1)(Cn1cncn1)c1ccc(F)cc1F | Isolate HR-Micro | 24 h | 0.19 µg/mL
CS(=O)(=O)OC[C@H]1CO[C@](Cn2ccnc2)(c2ccc(-c3ccccc3)cc2)O1 | 44 strains |  | 64 µg/mL
Clc1ccc(C(c2cccc3ccccc23)n2ccnc2)cc1 | 23 strains |  | 8 µg/mL
C=CC(C)(C)c1c2c(c(OC)c3ccc(=O)oc13)C=CC(C)(C)O2 |  |  | >50 µg/mL
Clc1ccc(C(c2ccc3ccccc3c2)n2ccnc2)s1 | 23 strains |  | 4 µg/mL
C[C@H]1[C@H](O)[C@@H](C)/C=C/C=C/C=C/C=C/C=C/C=C/C=C/[C@H](O[C@@H]2O[C@H](C)[C@@H](O)[C@H](N)[C@@H]2O)C[C@@H]2O[C@](O)(C[C@@H](O)C[C@@H](O)CC[C@H](O)[C@@H](O)C[C@@H](O)CC(=O)O[C@H]1C)C[C@H](O)[C@H]2C(=O)O | ATCC 10231 |  | 1.25 µg/mL
COc1ccc(C(c2ccc3ccccc3c2)n2ccnc2)cc1 | 23 strains |  | 8 µg/mL
O=Cc1ccc2[nH]c3ccccc3c2c1 |  |  | 13.6 µg/mL
CCCCCCCCCCCCCCCC(=O)N[C@H]1C[C@@H](O)[C@@H](O)NC(=O)[C@@H]2[C@@H](O)[C@@H](C)CN2C(=O)[C@H]([C@@H](C)O)NC(=O)[C@H]([C@H](O)[C@@H](O)c2ccc(O)cc2)NC(=O)[C@@H]2C[C@@H](O)CN2C(=O)[C@H]([C@@H](C)O)NC1=O | FP629 |  | 0.015 µg/mL
Clc1cc(Cl)c(OCC#CI)cc1Cl | 13 strains |  | 1.56 µg/mL
O=[N+]([O-])/C(Br)=C\c1ccc(Br)o1 | 31 strains |  | 1.2 µg/mL
CC[C@@H]([C@H](C)O)n1ncn(-c2ccc(N3CCN(c4ccc(OC[C@@H]5CO[C@@](Cn6cncn6)(c6ccc(F)cc6F)C5)cc4)CC3)cc2)c1=O | 19 strains (fluconazole-susceptible) |  | 0.063 µg/mL
Nc1[nH]c(=O)ncc1F | 97 isolates |  | 0.125 µg/mL
CC(=O)N1CCN(c2ccc(OCC3COC(Cn4ccnc4)(c4ccc(-c5ccccc5)cc4)O3)cc2)CC1 | 44 strains |  | 32 µg/mL
COc1ccc(C(c2cccc3ccccc23)n2ccnc2)cc1 | 23 strains |  | 16 µg/mL
C=CC(C)(C)c1c2c(c(O)c3ccc(=O)oc13)C(=O)CC(C)(C)O2 |  |  | >50 µg/mL
Cc1ccc(C(c2cccc3ccccc23)n2ccnc2)cc1 | 23 strains |  | 8 µg/mL
c1ccc(-c2ccc(C(c3ccccc3)n3ccnc3)cc2)cc1 | ATCC 10231 |  | 10 µg/mL
C/C=C/[C@@H]1OC(=O)C=C[C@@H]1O |  |  | <1 µg/mL

For reference, 4 entries again:

{"structure": "OC(Cn1cncn1)(Cn1cncn1)c1ccc(F)cc1F", "strain or isolate": "Isolate HR-Micro", "setting": "24 h", "result": "0.19 µg/mL"}
{"structure": "CCCCCCCCCCCCCCCC(=O)N[C@H]1C[C@@H](O)[C@@H](O)NC(=O)[C@@H]2[C@@H](O)[C@@H](C)CN2C(=O)[C@H]([C@@H](C)O)NC(=O)[C@H]([C@H](O)[C@@H](O)c2ccc(O)cc2)NC(=O)[C@@H]2C[C@@H](O)CN2C(=O)[C@H]([C@@H](C)O)NC1=O", "strain or isolate": "FP629", "result": "0.015 µg/mL"}
{"structure": "Clc1cc(Cl)c(OCC#CI)cc1Cl", "strain or isolate": "13 strains", "result": "1.56 µg/mL"}
{"structure": "Clc1ccc(C(c2cccc3ccccc23)n2ccnc2)cc1", "strain or isolate": "23 strains", "result": "8 µg/mL"}

Lines come from different laboratories, so protocols vary. A number after MIC or MFC names an inhibition level or a share of isolates.